Results of single-concentration screens

Source: ChEMBL document CHEMBL3988442, “University of Dundee, Small-Polar-MMV Screening Library” (2021).

Each number is a percent effect as filed. How 0% and 100% were set is not recorded. Most values in the screen are low, and negative values occur. The entries come from a sample that favours strong results. Two or more numbers in one place are separate tests of the same structure; such repeats can differ widely. A dash means the value is not listed here; it may have been measured.

Mtb glucose medium: 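Phenotypic screen: M. tuberculosis growth, glucose 7H9 medium, 3 days; the read-out is not stated. Concentration: 50 µM. The record gives no direction; compounds that gave an IC50 in retests scored well above the rest, so higher reads as more growth inhibition. Size under these conditions: about 69,000 compounds, about 760 of them at 50% or above in at least one test.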
Mtb cholesterol medium: 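Growth of Mycobacterium tuberculosis over 4 days (cholesterol / DPPC medium with tyloxapol); the read-out is not stated. Tested at 50 µM. Higher reads as more growth inhibition (inferred: compounds with an IC50 in retests scored well above the rest). About 69,000 compounds were tested under these conditions; 0.54% (about 370) showed 50% or more at least once.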

| # | compound | Mtb glucose medium | Mtb cholesterol medium |
|---|---|---|---|
| 1 | `Cc1cccc(N2CCN(C(=O)C3CC4(CCNCC4)CN3)CC2)n1` (configuration not stated) | -41.87% | - |
| 2 | `CNC(=O)CN1CCCC1c1ccccc1Br` (configuration not stated) | 26.17% | - |
| 3 | `CSc1ccc(OCCN2CCNC(=O)CC2)cc1` | 14.83% | - |
| 4 | `CCN(C(=O)C1Cc2cc(Cl)ccc2O1)C1CC1` (configuration not stated) | -26.12% & -0.3512% | - |
| 5 | `Cc1cnn(C2CCCN(C(=O)c3ccnc(N(C)C)c3)C2)c1` (configuration not stated) | - | 99.67% |
| 6 | `Cn1ccnc1-c1ccc(NCC2COCCO2)nn1` (configuration not stated) | -11.31% | - |
| 7 | `O=C(CCn1cccn1)N1CCSCC1` | -20.83% | - |
| 8 | `CC(C)[C@@H]1CN(CC(=O)NCc2ccco2)C[C@H]1NS(=O)(=O)N(C)C` | - | 3.42% |
| 9 | `O=C(NC[C@H]1CC[C@H](c2ccnc3ncnn32)CC1)c1ccccn1` | 10.88% | - |
| 10 | `O=C(O)C(F)(F)F.[H][C@@]12CN(CC)C[C@]1([H])[C@@H](OC)CCN2C(=O)Cc1ccsc1` | - | 64.6% |
| 11 | `COc1cccc(OC)c1CNC(Cc1ccsc1)c1ccc(C)cn1` (configuration not stated) | 71.05% | - |
| 12 | `CCNC(=O)NC(C)(C)C(=O)NCCc1csc2ccccc12` | 12.68% | - |
| 13 | `Cc1ccc(-c2noc([C@@H]3Cc4nc[nH]c4CN3)n2)cc1` | 53.92% & 37.27% | - |
| 14 | `Cc1ccc2nc(-c3cnc(N)nc3)c(C)c(C(=O)N(C)C)c2c1` | - | 52.5% |
| 15 | `CC(C#N)CNS(=O)(=O)c1ccc(F)c(Br)c1` (configuration not stated) | -7.497% | - |
| 16 | `CC(c1nc(-c2ccccc2)no1)N1CC(n2cccn2)C1` (configuration not stated) | 15.76% & 2.241% | - |
| 17 | `CC(C)C(C)N(C)Cc1nnc(-c2ccco2)o1` (configuration not stated) | - | 25.11% |
| 18 | `O=C(c1ccc(Cn2cnnn2)cc1)N1CC[C@H](CO)[C@H](O)C1` | - | -24.28% |
| 19 | `Cc1nc(CCN)cc(N2CCC(O)(c3ccc(Cl)cc3)CC2)n1` | 56.5% | - |
| 20 | `CNC(=O)Cc1cc2nccc(-c3c(OC)cccc3OC)n2n1` | 33.7% | - |
| 21 | `Cc1ccc(C(=O)N2CCOCC2C(N)=O)c(F)c1` (configuration not stated) | - | 7.734% |
| 22 | `O=C1NCCCc2[nH]c(Cc3cccc(Cl)c3)nc21` | -4.65% | -19.13% |
| 23 | `Cc1nccn1CCCNc1ccc(Cl)c(C#N)n1` | -4.38% | 5.843% |
| 24 | `Cc1nc(CN2CCCC(CCc3ccccc3C(F)(F)F)C2)co1` (configuration not stated) | 9.896% | 9.512% |
| 25 | `COc1cc(C(=O)NCCc2ccc(OC)c(OC)c2)on1` | -0.3902% & 2.002% | 7.531% |
| 26 | `CC(=O)NCCCNCc1ccc(Cl)c2cccnc12` | 25.15% | - |
| 27 | `CC(C)Cc1cc(NC(=O)c2ccncc2)n(C)n1` | 38.13% | - |
| 28 | `CC(C)c1nc(N2CCC(N3CCSCC3)CC2)c2cnn(C)c2n1` | 40.12% | - |
| 29 | `CC(C)CCOCCNC(=O)Nc1cc(C(F)(F)F)c[nH]c1=O` | - | 30.82% |
| 30 | `Cl.Fc1ccc(Cc2cnc(C3CCCN3)cn2)cc1` (configuration not stated) | -7.778% | -15.75% |
| 31 | `[H][C@]12CC[C@]([H])(CN(Cc3ccccc3)C1)N(Cc1snnc1C)C2` | 74.36% | - |
| 32 | `CN(C)CCNC(=O)c1ccn(-c2ccc3ccccn23)n1.O=C(O)C(F)(F)F` | 60.45% | - |
| 33 | `CCc1c(C)sc2ncnc(N3CC[C@@H](N4CCC(O)CC4)[C@H](O)C3)c12` | 13.15% | - |
| 34 | `O=C(Cc1ccc2c(c1)OCCO2)NC1CC1` | -12.15% | -10.5% |
| 35 | `Cc1csc(C(Cc2cccs2)NCc2cc3c(cc2C)OCO3)n1` (configuration not stated) | - | 36.06% & -13.6% |
| 36 | `CC(NCc1ccc(OCC(N)=O)cc1)c1ccc2c(c1)CCCC2` (configuration not stated) | 57.16% | 43.81% |
| 37 | `O=C(CCc1ccco1)Nc1cc(C(F)(F)F)c[nH]c1=O` | 14.79% | -16.14% |
| 38 | `Cc1ccccc1Cn1nnc2cc3c(cc2c1=O)OCCO3` | -7.333% | - |
| 39 | `[H][C@@]12CCN(C(=O)Cc3cccc(F)c3)C[C@]1(COC)CCO2` | -26.58% | - |
| 40 | `Cc1c(CS(C)(=O)=O)cccc1NCCCC1CCCC1` | 9.34% & 26.43% | - |
| 41 | `Cc1nnc(NC(=O)CN2CCCC(c3ccn[nH]3)C2)s1` (configuration not stated) | -8.195% | - |
| 42 | `Cc1cc(C(=O)NCC(C)N2CCc3ccccc32)no1` (configuration not stated) | 41.89% | - |
| 43 | `Fc1cccnc1N1CCCC(c2nccs2)C1` (configuration not stated) | 21.3% | - |
| 44 | `Cc1cc(C)nc(NC2CCCN(CCCc3ccccc3)C2)n1` (configuration not stated) | -33.12% | - |
| 45 | `Cc1cnn(CC2CCCN2Cc2nccn2C)c1` (configuration not stated) | 25.28% | - |
| 46 | `COc1ccc(CN2CCc3nc(C4CCCCN4C)ncc3C2)cc1` (configuration not stated) | 34.93% | - |
| 47 | `O=C(CCc1ccco1)N1CCC(Nc2cccnn2)CC1` | 2.299% & 18.35% | - |
| 48 | `Cc1cnc(N2CCN(C)c3ncccc3C2)nc1.O=C(O)C(F)(F)F` | -3.726% & -32.17% | - |
| 49 | `CC(NCc1ccc(OCC(N)=O)cc1)c1ccc(Cl)cc1Cl.Cl` (configuration not stated) | 61.98% | 71.18% |
| 50 | `CN(C)c1cc(CNC(=O)C2COc3ccccc3O2)ccn1` (configuration not stated) | -10.3% | - |
| 51 | `COc1cccc(N2CCC(CNCc3cccc(C#N)c3)C2)c1` (configuration not stated) | 14.9% & 42.86% | 16.33% |
| 52 | `CCOc1cccc2c1OCC(C(=O)NS(=O)(=O)c1ccc(C)s1)=C2` | 8.559% | - |
| 53 | `CCCNC(=O)c1ccc2c(OC)n(C)nc2c1` | 4.165% & 35.41% | - |
| 54 | `COc1cccnc1NC(=O)COc1ccc(F)cc1F` | - | 7.922% |
| 55 | `Cc1ccc(CN2CCOC3(CCN(C(=O)C4CCOC4)CC3)C2)cc1.O=C(O)C(F)(F)F` (configuration not stated) | 9.782% & 8.955% | 13.17% |
| 56 | `COCCN1CC(C(=O)N(C)Cc2ccc(Cl)s2)CC1=O` (configuration not stated) | 7.549% | - |
| 57 | `O=C(NC1CCN(c2ncccn2)CC1)c1sccc1C1CC1` | 2.093% | -2.505% |
| 58 | `CN(CC1CCCCO1)c1nc(-c2cccnc2)nc2c1CCNC2` (configuration not stated) | 1.885% | -0.2664% |